{"source": "patent US20040258699A1", "molecular_target": "PA63 (anthrax protective antigen, 63 kDa form) (Bacillus anthracis) (UniProt P13423)"}
{"substance": "LF protein (lethal factor) (from UniProt P15917 34-809)", "values": [{"measurement": "IC50 (read off the curve)", "value": 0.07, "unit": "µg/mL"}]}
